Test results as given in ChEMBL document CHEMBL1146972, “Specific inhibitors of Plasmodium falciparum thioredoxin reductase as potential antimalarial agents” (Bioorg Med Chem Lett, 2006).

Sequences of proteins named here, by UniProt entry; tags and fusion partners are left off. A change or cut given only in a name is not applied to a line headed by its entry.
UniProt O15770: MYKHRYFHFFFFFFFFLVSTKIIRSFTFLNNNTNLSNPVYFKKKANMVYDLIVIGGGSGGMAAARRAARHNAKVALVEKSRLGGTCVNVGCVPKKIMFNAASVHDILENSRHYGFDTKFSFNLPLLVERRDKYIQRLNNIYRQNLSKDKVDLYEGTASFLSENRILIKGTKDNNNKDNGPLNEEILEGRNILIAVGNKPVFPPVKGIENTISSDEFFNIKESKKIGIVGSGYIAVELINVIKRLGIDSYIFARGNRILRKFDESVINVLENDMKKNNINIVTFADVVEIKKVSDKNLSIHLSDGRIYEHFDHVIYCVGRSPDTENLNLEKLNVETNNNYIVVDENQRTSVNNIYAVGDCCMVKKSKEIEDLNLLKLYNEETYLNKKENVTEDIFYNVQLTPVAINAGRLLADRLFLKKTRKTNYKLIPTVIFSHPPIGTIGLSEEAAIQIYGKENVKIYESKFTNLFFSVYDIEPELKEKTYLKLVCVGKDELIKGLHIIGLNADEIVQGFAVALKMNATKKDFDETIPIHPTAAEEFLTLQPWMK

Target: Glutathione reductase (Plasmodium falciparum 3D7) (UniProt O15770)
Assay: Inhibition of Plasmodium falciparum GR at 0.5 uM

Work on `O=[N+]([O-])c1ccc(Sc2ccc([N+](=O)[O-])cc2[N+](=O)[O-])c([N+](=O)[O-])c1` yielded an inhibition of 45%.
